According to patent US20110064668A1, “J-superfamily conotoxin peptides” (published 2011):

These substances were tested against Kv1.6 channel (assay: cell-based or functional assay).

First: pl14a[H17A] (peptide)
Second: pl14a[Y19A] (peptide)
The IC50 of the first is 7.1-fold lower: 4600 nM for the first, 32700 nM for the second.

pl14a[F21A] (peptide) and pl14a[L9A] (peptide) are within 1.5-fold of each other in IC50: 2410 nM for the first, 2260 nM for the second.

First: pl14a[R12A] (peptide)
Second: pl14a[P20A] (peptide)
The IC50 of the first is 2.9-fold higher: 6540 nM for the first, 2220 nM for the second.

With pl14a[I15A] (peptide) the IC50 was 45500 nM.

The substances below were run against α1β1εδ subtype of mouse muscle nAChR (mouse) (UniProt P04756) (assay: cell-based or functional assay).

pl14a[H17A] (peptide) and pl14a[F21A] (peptide) are within 1.5-fold of each other in IC50: 228 nM for the first, 257 nM for the second.

pl14a[L9A] (peptide) and pl14a[R12A] (peptide) are within 1.5-fold of each other in IC50: 434 nM for the first, 355 nM for the second.

pl14a[P20A] (peptide) and pl14a[I15A] (peptide) are within 1.5-fold of each other in IC50: 240 nM for the first, 175 nM for the second.

The substances below were run against α3β4 subtype of rat neuronal nAChR (rat) (UniProt P04757) (assay: cell-based or functional assay).

Going from pl14a[H17A] (peptide) to pl14a[Y19A] (peptide), the IC50 rises from 3920 nM to 10400 nM (2.7-fold).

Compared with pl14a[F21A] (peptide), pl14a[L9A] (peptide) is 2.1-fold lower in IC50: 2850 nM for the first, 1360 nM for the second.

Going from pl14a[R12A] (peptide) to pl14a[P20A] (peptide), the IC50 falls from 3210 nM to 710 nM (4.5-fold).

For pl14a[I15A] (peptide), the IC50 was 1600 nM.
